Pooled drug test results. Numbers come from NIAID ChemDB, via PubChem.

Shared fields: growth or infection tests; species: Candida albicans

ECn: concentration that inhibits the pathogen or its effect by n%. An empty or dashed field is not shown. A number after MIC or MFC names an inhibition level or a share of isolates. Neighbouring rows are from separate reports.

structure | read by | strain | read-out | result
CC1(C)S[C@@H]2[C@H](NC(=O)[C@H](N)c3ccccc3)C(=O)N2[C@H]1C(=O)O |  |  | MIC | 0.12 µM
COC(OC)C(C)n1[se]c2ccccc2c1=O | agar |  | MIC | >512 µg/mL
O=C(CN1CCN(C(c2ccccc2)c2ccc(Cl)cc2)CC1)Cn1cnc([N+](=O)[O-])c1 | broth dilution | ATCC 76615 | MIC | 25 µg/mL
CCOC(=O)c1ccc(C2=CN3CCC2CC3)cc1 | broth dilution | ATCC 10231 | EC50 | >16 µg/mL
CC(C)n1[se]c2ccccc2c1=O | agar |  | MIC | 2 µg/mL
CC(C)C(=O)CCCNC(=S)NC1COOc2ccccc21 |  | ATCC2094 | MIC | 38 µg/mL
CCCn1[se]c2ccccc2c1=O | agar |  | MIC | 2 µg/mL
CCC(C)CC(C)CCCCCCCCC(=O)N[C@H]1C[C@@H](O)[C@@H](O)NC(=O)[C@@H]2[C@@H](O)CCN2C(=O)[C@H]([C@H](O)CC(N)=O)NC(=O)[C@H]([C@H](O)[C@@H](O)c2ccc(OC(=O)NCCN(C)C)cc2)NC(=O)[C@@H]2C[C@@H](O)CN2C(=O)[C@H]([C@@H](C)O)NC1=O |  | MY1055 | MIC | 2 µg/mL
C1=C(c2ccc3ccccc3c2)C2CCN1CC2 | broth dilution | ATCC 10231 | EC50 | >16 µg/mL
O=C(Nc1cccc(Cl)c1)n1[se]c2ccccc2c1=O | agar |  | MIC | >512 µg/mL
CC(C)=CCC/C(C)=C/CC/C(C)=C/CCCOS(=O)(=O)c1ccc(C)cc1 |  | CCH442 | MIC | >400 µM
N#CC1=C(N)Oc2c(c(=O)oc3ccccc23)C1c1cc2ccccc2nc1Sc1ccccc1 | broth dilution | MTCC 227 | MIC | 250 µg/mL
C1=C(c2ccc(OCc3ccccc3)cc2)C2CCN1CC2 | broth dilution | ATCC 10231 | EC50 | 1 µg/mL
COc1ccc2nc(Sc3ccccc3)c(C3C(C#N)=C(N)Oc4c3c(=O)oc3ccc(C)cc43)cc2c1 | broth dilution | MTCC 227 | MIC | 1000 µg/mL
C1=C(c2cnc3ccccc3c2)C2CCN1CC2 | broth dilution | ATCC 10231 | EC50 | >16 µg/mL
CCC(C)CC(C)CCCCCCCCC(=O)N[C@H]1C[C@@H](O)[C@@H](O)NC(=O)[C@@H]2[C@@H](O)CCN2C(=O)[C@H]([C@H](O)CC(N)=O)NC(=O)[C@H]([C@H](O)[C@@H](O)c2ccc(OC(=O)CCCC(=O)O)cc2)NC(=O)[C@@H]2C[C@@H](O)CN2C(=O)[C@H]([C@@H](C)O)NC1=O |  | MY1055 | MIC | 1 µg/mL
CCOC(=O)CCNC(=S)Nc1ccccc1 |  | ATCC2094 | MIC | 58 µg/mL
C=C[C@]1(C)C=C2C(=O)c3c(NC=O)cccc3C(C)(C)[C@H]2C[C@H]1O |  |  | MIC | >100 µM
COC(=O)CCNC(=S)Nc1ccc(OC)cc1 |  | ATCC2094 | MIC | 6 µg/mL
COc1ccc(C(=O)/C=C/c2ccc(C(=O)O)cc2)cc1 |  | 1 clinical isolate | MIC | >32 µg/mL
Cc1ccc(S(=O)(=O)[O-])cc1.c1cc[nH+]cc1 |  | CCH442 | MIC | >400 µM
C[C@@H]1[C@H](O)[C@@H](C)/C=C/C=C/CC/C=C/C=C/C=C/C=C/C(O[C@H]2O[C@H](C)[C@@H](O)[C@H](N)[C@@H]2O)CC2O[C@](O)(CC(O)C(O)CCC(O)CC(O)CC(O)CC(=O)O[C@H]1C)CC(O)C2C(=O)O | broth dilution | ATCC 10231 | MIC100 | 6.25 µg/mL
Cc1nc([N+](=O)[O-])cn1CC(=O)CN1CCN(C(c2ccccc2)c2ccc(Cl)cc2)CC1 | broth dilution | ATCC 76615 | MIC | 100 µg/mL
Cc1ccc(Sc2nc3ccc(C)cc3cc2C2C(C#N)=C(N)Oc3c2c(=O)oc2ccc(C)cc32)cc1 | broth dilution | MTCC 227 | MIC | >1000 µg/mL
CCn1[se]c2ccccc2c1=O | agar |  | MIC | 2 µg/mL
Cc1ccc[n+](CCCCC(C)CCCC(C)CCCC(C)C)c1.O=C([O-])C(F)(F)F |  | CCH442 | MIC | 7 µM
O=C1/C(=C/c2ccccc2)CN(C(=O)/C=C/c2ccc3c(c2)OCO3)C/C1=C\c1ccccc1 |  | 1 clinical isolate | MIC | >32 µg/mL
Nc1[nH]c(=O)ncc1F | resazurin | SC5314 | MIC | 0.25 µg/mL
CCOC(Cn1[se]c2ccccc2c1=O)OCC | agar |  | MIC | 314 µg/mL
CCCCN(CCCC)c1cc(N(CCCC)CCCC)c2ccc(C)nc2c1O |  |  | MIC | 0.35 µg/mL
O=C(CCl)N1CCN(C(c2ccccc2)c2ccc(Cl)cc2)CC1 | broth dilution | ATCC 76615 | MIC | 25 µg/mL
Cc1ccc2nc(Sc3ccccc3)c(C3C(C#N)=C(N)Oc4c3c(=O)oc3ccc(C)cc43)cc2c1 | broth dilution | MTCC 227 | MIC | 500 µg/mL
Clc1ccc(COC(Cn2ccnc2)c2ccc(Cl)cc2Cl)c(Cl)c1 | broth dilution | ATCC 18804 | EC50 | 110.8 µg/mL
C[C@@H](c1nc(-c2ccc(C#N)cc2)cs1)[C@](O)(Cn1cnnc1)c1ccc(F)cc1F |  | A28970 | MIC | 1 µg/mL
CCC(C)CC(C)CCCCCCCCC(=O)N[C@H]1C[C@@H](O)[C@H](NCCN)NC(=O)[C@@H]2[C@@H](O)CCN2C(=O)[C@H]([C@H](O)CCN)NC(=O)[C@H]([C@H](O)[C@@H](O)c2ccc(O)cc2)NC(=O)[C@@H]2C[C@@H](O)CN2C(=O)[C@H]([C@@H](C)O)NC1=O | resazurin | DSY294 | MIC | 1 µg/mL
C=CC[C@@H]1/C=C(/C)C[C@H](C)C[C@H](OC)[C@H]2O[C@@](O)(C(=O)C(=O)N3CCCC[C@H]3C(=O)O[C@H](/C(C)=C/[C@@H]3CC[C@@H](O)[C@H](OC)C3)[C@H](C)[C@@H](O)CC1=O)[C@H](C)C[C@@H]2OC |  | SC5314 | MIC | >3.12 µg/mL
CCC(C)CC(C)CCCCCCCCC(=O)N[C@H]1C[C@@H](O)[C@@H](O)NC(=O)[C@@H]2[C@@H](O)CCN2C(=O)[C@H]([C@H](O)CC(N)=O)NC(=O)[C@H]([C@H](O)[C@@H](O)c2ccc(OC(=O)NCC(=O)O)cc2)NC(=O)[C@@H]2C[C@@H](O)CN2C(=O)[C@H]([C@@H](C)O)NC1=O |  | MY1055 | MIC | 128 µg/mL
CC(C)=CCC/C(C)=C/CCC(C)=CCCC[n+]1cccc(C)c1.Cc1ccc(S(=O)(=O)[O-])cc1 |  | CCH442 | MIC | 13 µM
CCC(=O)CCCNC(=S)Nc1ccccc1 |  | ATCC2094 | MIC | >128 µg/mL
Cc1cc2ncn(CC(=O)N3CCN(C(c4ccccc4)c4ccc(Cl)cc4)CC3)c2cc1C | broth dilution | ATCC 76615 | MIC | 25 µg/mL
O=C1/C(=C/c2ccccc2)CN(C(=O)c2ccc(/C=C/C(=O)c3ccc(Cl)cc3)cc2)C/C1=C\c1ccccc1 |  | 1 clinical isolate | MIC | >32 µg/mL
O=c1c2ccccc2[se]n1CCO | agar |  | MIC | 242 µg/mL
O=C1/C(=C\c2ccccc2)CN(C(=O)c2ccc(/C=C/C(=O)c3ccccc3)cc2)C/C1=C/c1ccccc1 |  | 1 clinical isolate | MIC | >32 µg/mL
CCCCCCN(CCCCCC)c1cc(N(CCCCCC)CCCCCC)c2ccc(C)nc2c1O |  |  | MIC | 7.1 µg/mL
COc1cc(O)c2c(c1)C(=O)c1c(cc3c(c1O)-c1c(cc(C)c(C(=O)N[C@H](CO)C(=O)O)c1O)[C@H](O[C@@H]1O[C@H](C)[C@H](O)[C@H](O)[C@H]1O)[C@H]3O)C2=O |  | ATCC 38247 | MIC | 3.1 µg/mL
CC(C)(C)[Si](C)(C)Oc1ccc(C2=CN3CCC2CC3)cc1 | broth dilution | ATCC 10231 | EC50 | >16 µg/mL
O=C1/C(=C/c2ccccc2)CN(C(=O)/C=C/c2ccc([N+](=O)[O-])cc2)C/C1=C\c1ccccc1 |  | 1 clinical isolate | MIC | >32 µg/mL
[CH3][Sn]1([CH3])[O]C(=O)c2ccccc2NCc2ccccc2[O]1 | broth dilution | ATCC 18804 | EC50 | 20 µg/mL